Assay results published in publication PMC7181131, “N-Pyrazinoyl Substituted Amino Acids as Potential Antimycobacterial Agents—the Synthesis and Biological Evaluation of Enantiomers” (Molecules, 2020).
Several values for one entry are separate records, joined by “and”; a condition that tells them apart may be missing. Identical values can stand only once.

Test system: HepG2 cell line
Test: HepG2 cytotoxicity, CellTiter 96 (MTS) assay
Format: cell-based, human
Conditions: SI = IC50(µM)/MIC(µM); HepG2 IC50 vs Mtb MIC at pH 6

Row | Structure (SMILES) | SI pH 6
1 | COC(=O)C(NC(=O)c1cnccn1)c1ccccc1 [PC-D/L-Pgl-Me, methyl 2-phenyL-2-(pyrazine-2-carboxamido)acetate] | > 40
2 | CCOC(=O)[C@H](Cc1ccc(O)cc1)NC(=O)c1cnccn1 [PC-L-Tyr-Et, ethyl (pyrazine-2-carbonyl)-L-tyrosinate] | 7.2
3 | COC(=O)[C@@H](NC(=O)c1cnccn1)[C@@H](C)OC(C)(C)C [PC-L-OtBu-Thr-Me, methyl O-(tert-butyl)-N-(pyrazine-2-carbonyl)-L-threoninate] | 0.3
4 | CCOC(=O)[C@H](Cc1c[nH]c2ccccc12)NC(=O)c1cnccn1 [PC-L-Trp-Et, ethyl (pyrazine-2-carbonyl)-L-tryptophanate] | 1.2
5 | C[C@H](NC(=O)c1cnccn1)C(=O)O [PC-L-Ala, (pyrazine-2-carbonyl)-L-alanine] | ≥ 0.2
6 | COC(=O)[C@H](CCSC)NC(=O)c1cnccn1 [PC-L-Met-Me, methyl (pyrazine-2-carbonyl)-L-methioninate] | 6.9
7 | NC(=O)c1cnccn1 [PZA, pyrazinamide, reference compound] | 302.9
8 | COC(=O)[C@H](COCc1ccccc1)NC(=O)c1cnccn1 [PC-L-OBn-Ser-Me, methyl O-benzyl-N-(pyrazine-2-carbonyl)-L-serinate] | 30.0
9 | CCOC(=O)[C@H](C)NC(=O)c1cnccn1 [PC-L-Ala-Et, ethyl (pyrazine-2-carbonyl)-L-alaninate] | > 40 and > 57.1
10 | CCOC(=O)[C@H](CC(C)C)NC(=O)c1cnccn1 (racemic) [PC-DL-Leu-Et, ethyl (pyrazine-2-carbonyl)leucinate] | 13.4
